Anti-infective test results gathered from many reports (values: NIAID ChemDB through PubChem).

Common to all: tests in culture; agent: Mycobacterium tuberculosis

MIC bound: limit read from a one-dose screen. ECn is the concentration giving n% inhibition of infection, replication or growth. Fold resistance: result on the changed form divided by that on wild type. A number after MIC or MFC names an inhibition level or a share of isolates. Rows are shuffled and stem from different studies. Inhibition is in % at the dose shown (toxicity tests: loss of growth or viability). Blank or dashed fields: not listed here.

SMILES,strain or isolate,changes,method,conditions,read-out,tested at,value
CC(=O)/C(N=Nc1ccc(C(=O)N/N=C/c2ccc([N+](=O)[O-])o2)cc1)=C(\C)O,H37Rv,,,,MIC,,<12.5 µg/mL
C/C(=N\NC(=O)c1ccncc1)c1cccc(Br)c1,6 PI,,,,MIC,,>20 µg/mL
O=C(/C=C/c1ccccc1)c1ccccc1,H37Rv,,resazurin,14 d,MIC,,32 µg/mL
CC(=O)/C(N=Nc1ccc(C(=O)N/N=C/c2ccccc2)cc1)=C(\C)O,H37Rv,,,,MIC,,>12.5 µg/mL
Nc1cccc2c(Br)cncc12,H37Rv,,,,MIC,,>100 µg/mL
O=C(/C=C/c1c(F)cccc1Cl)c1ccc(F)cc1,H37Rv,,MTT,7 d,MIC,,64 µg/mL
Cc1ccc(C(=O)c2ccccc2C(=O)O)cc1,H37Rv,,,,MIC,,>100 µg/mL
Nc1[nH]c(=S)nc2nc3c4ccccc4c4ccccc4c3nc12,H37Rv,,BACTEC,,MIC bound,,>12.5 µg/mL
Nc1ccc(C(=O)N/N=C/c2ccccc2)cc1,H37Rv,,,,EC50,,>12.5 µg/mL
CO[C@H]1/C=C/O[C@@]2(C)Oc3c(C)c(O)c4c(O)c(c(/C=N/N5CCN(C/C=C/c6ccccc6)CC5)c(O)c4c3C2=O)NC(=O)/C(C)=C\C=C\[C@H](C)[C@H](O)[C@@H](C)[C@@H](O)[C@@H](C)[C@H](OC(C)=O)[C@@H]1C,MTB37 (RIF-R),,,,MIC,,0.25 µg/mL
CC(NN)C(=O)O,H37Rv,,,,MIC,,100 µg/mL
CO/C(=N\N=C\c1ccc(Cl)cc1)c1ccncc1,H37Rv,,,,MIC,,>20 µg/mL
NNC(=O)c1ccncc1,H37Rv,EJMCh4/1 MmpL3 (V285A),visual reading / absorbance,,MIC90,,0.07 µM
COc1ccc(C(=O)/C=C/c2ccccc2Cl)cc1,H37Rv,,MTT,21 d,MIC,,64 µg/mL
CO[C@H]1/C=C/O[C@@]2(C)Oc3c(C)c(O)c4c(O)c(cc(OCC(=O)N(CCCl)CCCl)c4c3C2=O)NC(=O)/C(C)=C\C=C\[C@H](C)[C@H](O)[C@@H](C)[C@@H](O)[C@@H](C)[C@H](OC(C)=O)[C@@H]1C,H37Rv,,,,MIC,,0.09 µg/mL
CCC1=CC(CC)C2C(=O)N(c3ccccc3)C1C2C(=O)O,H37Rv,,,,MIC,,>100 µg/mL
CC(=O)Nc1ncnc2c1ncn2C1OC(COC(C)=O)C(NC(=O)C(F)(F)F)C1OC(C)=O,H37Rv,,BACTEC,,inhibition,12.5 µg/mL,-18%
CC(=O)/C(N=Nc1ccc(C(=O)N/N=C/C=C/c2ccc(N(C)C)cc2)cc1)=C(\C)O,H37Rv,,,,inhibition,12.5 µg/mL,76%
CC(=O)C1(N=Nc2ccc(S(=O)(=O)Nc3nccc(C)n3)cc2)CCOC1=O,H37Rv,,BACTEC,,MIC bound,,>12.5 µg/mL
O=C(/C=C/c1ccc(F)cc1)c1ccc(F)cc1,H37Rv,,MTT,21 d,MIC,,64 µg/mL
C=C[C@@]1(C)CC(=O)[C@]2(O)[C@@]3(C)[C@@H](O)CCC(C)(C)[C@@H]3[C@H](O)[C@@H](OC(C)=O)[C@@]2(C)O1,H37Rv,,BACTEC,,inhibition,12.5 µg/mL,10%
CO[C@H]1/C=C/O[C@@]2(C)Oc3c(C)c(O)c4c(O)c(c(/C=N/N5CCN(C)CC5)c(O)c4c3C2=O)NC(=O)/C(C)=C\C=C\[C@H](C)[C@H](O)[C@@H](C)[C@@H](O)[C@@H](C)[C@H](OC(C)=O)[C@@H]1C,PR1282,,,,MIC,,≤0.02 µg/mL
O=C(/C=C/c1ccccc1Cl)c1ccccc1,H37Rv,,MTT,21 d,MIC,,32 µg/mL
CCOC(=O)COc1ccc(-c2ccccc2Cl)c(CN2CCN(c3ccccn3)CC2)c1,H37Rv (ATCC 27294),,broth dilution,,MIC,,8 µg/mL
CCCCCCCN1C(=O)c2cc(Cl)nnc2Oc2cc(C)ccc21,H37Rv,,BACTEC,,inhibition,12.5 µg/mL,78%
CCCCN(C(=O)COc1cc2c(O)c3c(O)c(C)c4c(c13)C(=O)[C@@](C)(O/C=C/[C@H](OC)[C@@H](C)[C@@H](OC(C)=O)[C@H](C)[C@H](O)[C@H](C)[C@@H](O)[C@@H](C)/C=C/C=C(/C)C(=O)N2)O4)N(CCC)CCC,H37Rv,,,,MIC,,0.09 µg/mL
COc1cc2c(cc1OC)[C@@]13CCN4CC5=CCO[C@H]6CC(=O)N2[C@H]1[C@H]6[C@H]5C[C@H]43,H37Rv,,,,MIC,,>100 µg/mL
CO/C(=N\N=C\c1ccc(F)cc1)c1ccncc1,16PI,,,,MIC,,>20 µg/mL
CC(c1cc(OCC(=O)O)ccc1-c1ccc(C#N)cc1)N1CCN(c2ccccn2)CC1,H37Rv (ATCC 27294),,broth dilution,,MIC,,32 µg/mL
COc1ccc(Cl)c(C(=O)O)c1,H37Rv,,,,MIC,,>100 µg/mL
CCOC(=O)c1cn(CC)c2cc3c(cc2c1=O)SCS3,H37Rv,,BACTEC,,MIC bound,,>12.5 µg/mL
Cc1cc(N)cc(C)c1S(=O)(=O)O,H37Rv,,,,MIC,,>100 µg/mL
CCCCCN1C(=O)c2ccnnc2Oc2ccc(C)cc21,H37Rv,,BACTEC,,EC50,,>12.5 µg/mL
COc1ccccc1NCS(=O)(=O)[O-].[Na+],H37Rv,,,,MIC,,>100 µg/mL
COc1ccc(/C(C)=N/NC(=O)c2ccncc2)cc1F,6 PI,,,,MIC,,>20 µg/mL
Cc1ccc(C(=O)/C=C/c2ccccc2)c(F)c1,H37Rv,,resazurin,7 d,MIC,,16 µg/mL
CO[C@H]1/C=C/O[C@@]2(C)Oc3c(C)c(O)c4c(O)c(c(/C=N/N5CCN(C)CC5)c(O)c4c3C2=O)NC(=O)/C(C)=C\C=C\[C@H](C)[C@H](O)[C@@H](C)[C@@H](O)[C@@H](C)[C@H](OC(C)=O)[C@@H]1C,H37Rv,,visual reading / absorbance,,MIC90,,0.6 µM
NS(=O)(=O)c1cc2c(cc1Cl)NC=NS2(=O)=O,H37Rv,,resazurin,,MIC bound,,>6.25 µg/mL
O=C(O)COc1ccc(-c2ccc(Cl)cc2)c(CN2CCN(c3ccccn3)CC2)c1,H37Rv (ATCC 27294),,broth dilution,,MIC,,64 µg/mL
COc1ccc(C(=O)/C=C/c2ccccc2Cl)c(F)c1,H37Rv,,MTT,,MIC,,32 µg/mL
Nc1ccn([C@@H]2O[C@H](C(O[C@@H]3O[C@H](CO)[C@@H](O)[C@H](N)[C@H]3O)[C@@H](O)[C@@H](O)[C@@H](O)[C@@H](O)CO)[C@@H](N)[C@H](O)[C@H]2O)c(=O)n1,ETA-R,,,,MIC,,12.5 µg/mL
NC(=O)n1[nH]c(=O)cc1N,H37Rv,,,,MIC,,100 µg/mL
CCCCCC(C)NC(=O)COc1cc2c(O)c3c(O)c(C)c4c(c13)C(=O)[C@@](C)(O/C=C/[C@H](OC)[C@@H](C)[C@@H](OC(C)=O)[C@H](C)[C@H](O)[C@H](C)[C@@H](O)[C@@H](C)/C=C/C=C(/C)C(=O)N2)O4,H37Rv,,,,MIC,,0.18 µg/mL
CCN(CC)Cc1c(C)nc2ccc(N(C)C)cc2c1Cl,H37Rv,,BACTEC,,inhibition,12.5 µg/mL,62%
O=C(CC(=O)c1ccccc1)Nc1cccc(NC(=O)CC(=O)c2ccccc2)c1,H37Rv,,,,MIC,,50 µg/mL
O=C(O)COc1ccc(-c2ccncc2)c(CN2CCN(c3ccccn3)CC2)c1,H37Rv (ATCC 27294),,broth dilution,,MIC,,32 µg/mL
O=C(O)c1ccccc1C(=O)C(=O)c1ccccc1C(=O)O,H37Rv,,,,MIC,,>100 µg/mL
C1CC[N+]2(CC1)CCCCC2.NC(=S)[S-],H37Rv,,BACTEC,,MIC,,≥12.5 µg/mL
CCc1ccc([C@H]2C[C@@H](C(F)(F)F)n3ncc(C(=O)NCc4ccc(OC)cc4)c3N2)cc1,H37Rv,MmpL3: Ala249Pro,fluorescence,,fold resistance,,>8
CC1=C(O)C(=O)C(C2=C(O)C(=O)C(C)=C(O)C2=O)=C(O)C1=O,H37Rv,,BACTEC,,MIC,,≥12.8 µg/mL
COc1ccccc1N1CCN(Cc2cc(OCC(=O)O)ccc2-c2ccc(Cl)cc2)CC1,H37Rv (ATCC 27294),,broth dilution,,MIC,,32 µg/mL
CC(C)CCN1C(=O)c2cc(Cl)nnc2Oc2ccc(Cl)cc21,H37Rv,,BACTEC,,inhibition,12.5 µg/mL,30%
COc1ccc(C(=O)/C=C/c2ccc(F)cc2)cc1F,H37Rv,,MTT,7 d,MIC,,128 µg/mL
O=C(O)CSc1ccccc1,H37Rv,,,,MIC,,>100 µg/mL
O=C(NO)c1cccnc1,H37Rv,,BACTEC,,inhibition,12.5 µg/mL,9%
COc1ccc2cc(CN(C(=O)Nc3ccc(F)cc3F)C3CCCCCC3)c(=O)[nH]c2c1,H37Rv (ATCC 27294),,broth dilution,7 d,MIC,,>64 µg/mL
Cc1ccc(NCCN2CCCCC2)c2c(=O)c3ccccc3sc12,H37Rv,,BACTEC,,inhibition,12.5 µg/mL,98%
CCOC(=O)C1=C(C)NC(C)=C(C(=O)OCC)C1C,H37Rv,,,,MIC,,>100 µg/mL
CCCCN(C(=O)COc1cc2c(O)c3c(O)c(C)c4c(c13)C(=O)[C@@](C)(O/C=C/[C@H](OC)[C@@H](C)[C@@H](OC(C)=O)[C@H](C)[C@H](O)[C@H](C)[C@@H](O)[C@@H](C)/C=C/C=C(/C)C(=O)N2)O4)N(C)C,H37Rv,,,,MIC,,0.15 µg/mL
S=c1[nH][nH]c(=S)[nH]1,H37Rv,,,,MIC,,>100 µg/mL
C/C=C1/C(=O)O[C@]23C=C[C@@H]4C(C(=O)OC)=CO[C@H](O[C@@H]12)[C@@H]43,MDR1 clinical isolate,,MTT,,MBC,,2.5 µg/mL
COc1ccc(/C=N/n2c(C)ccc2C)cc1,H37Rv,,,,MIC,,100 µg/mL
CCCCCCN1C(=O)c2ccnnc2Oc2ccccc21,H37Rv,,BACTEC,,EC50,,>12.5 µg/mL
CC[As]1c2ccccc2Oc2ccccc21,H37Rv,,BACTEC,,MIC,,6.25 µg/mL
O=C1c2c(O)ccc(Cl)c2C(=O)c2c(O)ccc(Cl)c21,H37Rv,,,,MIC,,>100 µg/mL
CCOc1ccc(-n2c(=O)c(N=Nc3ccccc3Cl)c(O)n(-c3ccc(Br)cc3)c2=S)cc1,H37Rv,,BACTEC,,MIC bound,,≤12.5 µg/mL
CC[C@H]1OC(=O)[C@H](C)[C@@H](O[C@H]2C[C@@](C)(OC)[C@@H](O)[C@H](C)O2)[C@H](C)[C@@H](O[C@@H]2O[C@H](C)C[C@H](N(C)C)[C@H]2O)[C@](C)(OC)C[C@@H](C)C(=O)[C@H](C)[C@@H](O)[C@]1(C)O,Isolate 40,,,,MIC,,2 µg/mL
C=CCNc1nc(N)nc(Nc2ccccc2)n1,H37Rv,,,,MIC,,100 µg/mL
C[C@H](N)C(=O)N[C@@H]1[C@H]2C(=C(O)C[C@@H](O)[C@@H]2O)C(=O)O[C@]1(C)C(Cl)Cl,INH-r,,,,MIC,,0.8 µg/mL
O=C(Nc1ccc(F)cc1)N(Cc1cc2ccc(F)cc2[nH]c1=O)C1CCCCC1,H37Rv (ATCC 27294),,broth dilution,7 d,MIC,,>64 µg/mL
O=C(N/N=C/c1ccc(O)cc1)C(=O)N/N=C/c1ccc(O)cc1,H37Rv,,BACTEC,,MIC bound,,>12.5 µg/mL
CC(C)N=c1cc2n(-c3ccc(Cl)cc3)c3ccccc3nc-2cc1Nc1ccc(Cl)cc1,2218,,,multidrug-resistant,MIC,,0.5 µg/mL
CCOc1cc(=O)cc2n(-c3cc(OCC)c(O)c(OCC)c3)c3ccccc3nc1-2,H37Rv,,BACTEC,,inhibition,12.5 µg/mL,74%
Cc1cc2nc(CCC3CCCCC3)[nH]c2cc1C,H37Rv,6A MmpL3 (V684A),visual reading / absorbance,,MIC90,,1.93 µM
O=C(N=Nc1c(Cl)c(O)c2ccccc2c1O)C(=O)Nc1cccc(C(F)(F)F)c1,H37Rv,,BACTEC,,inhibition,12.5 µg/mL,88%
CC(=O)Nc1ccc(S(=O)(=O)C(CC(=O)c2ccccc2)c2ccccc2)cc1,H37Rv,,,,MIC,,>100 µg/mL
Oc1ccc2ccccc2c1CN1CCOCC1,H37Rv,,BACTEC,,inhibition,12.5 µg/mL,42%
COc1ccc2nc(-c3ccc(Cl)cc3)cc(Cl)c2c1,H37Rv,,,,MIC,,>100 µg/mL
NC(=O)c1c[n+](Cc2ccccc2)ccn1.[Br-],H37Rv,,BACTEC,,MIC,,≥12.5 µg/mL
CC(NC(=O)c1ccccc1C(F)(F)F)c1nnc(SCCOc2ccc(F)cc2)n1C,H37Rv (ATCC 27294),,broth dilution,,MIC,,>64 µg/mL

10 of the rows above, restated:

SMILES	strain or isolate	changes	method	conditions	read-out	tested at	value
O=C(CC(=O)c1ccccc1)Nc1cccc(NC(=O)CC(=O)c2ccccc2)c1	H37Rv				MIC		50 µg/mL
Cc1ccc(C(=O)/C=C/c2ccccc2)c(F)c1	H37Rv		resazurin	7 d	MIC		16 µg/mL
NC(=O)c1c[n+](Cc2ccccc2)ccn1.[Br-]	H37Rv		BACTEC		MIC		≥12.5 µg/mL
CCOC(=O)COc1ccc(-c2ccccc2Cl)c(CN2CCN(c3ccccn3)CC2)c1	H37Rv (ATCC 27294)		broth dilution		MIC		8 µg/mL
CC1=C(O)C(=O)C(C2=C(O)C(=O)C(C)=C(O)C2=O)=C(O)C1=O	H37Rv		BACTEC		MIC		≥12.8 µg/mL
CC(C)CCN1C(=O)c2cc(Cl)nnc2Oc2ccc(Cl)cc21	H37Rv		BACTEC		inhibition	12.5 µg/mL	30%
CC(C)N=c1cc2n(-c3ccc(Cl)cc3)c3ccccc3nc-2cc1Nc1ccc(Cl)cc1	2218			multidrug-resistant	MIC		0.5 µg/mL
CCCCN(C(=O)COc1cc2c(O)c3c(O)c(C)c4c(c13)C(=O)[C@@](C)(O/C=C/[C@H](OC)[C@@H](C)[C@@H](OC(C)=O)[C@H](C)[C@H](O)[C@H](C)[C@@H](O)[C@@H](C)/C=C/C=C(/C)C(=O)N2)O4)N(CCC)CCC	H37Rv				MIC		0.09 µg/mL
COc1ccc(C(=O)/C=C/c2ccccc2Cl)c(F)c1	H37Rv		MTT		MIC		32 µg/mL
CCCCCCN1C(=O)c2ccnnc2Oc2ccccc21	H37Rv		BACTEC		EC50		>12.5 µg/mL